## Fitness effects across NS2B and the NS3 protease domain of Zika virus

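Mutant virus pools were grown in human Huh-7.5 cells. Sequencing of three replicate libraries (two for positions 207-308) was averaged into one effect per change.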

Protein: NS2B and the protease part of NS3 of Zika virus strain MR766. Positions count along the chain below; NS2B spans 2-131 and NS3 starts at 132.
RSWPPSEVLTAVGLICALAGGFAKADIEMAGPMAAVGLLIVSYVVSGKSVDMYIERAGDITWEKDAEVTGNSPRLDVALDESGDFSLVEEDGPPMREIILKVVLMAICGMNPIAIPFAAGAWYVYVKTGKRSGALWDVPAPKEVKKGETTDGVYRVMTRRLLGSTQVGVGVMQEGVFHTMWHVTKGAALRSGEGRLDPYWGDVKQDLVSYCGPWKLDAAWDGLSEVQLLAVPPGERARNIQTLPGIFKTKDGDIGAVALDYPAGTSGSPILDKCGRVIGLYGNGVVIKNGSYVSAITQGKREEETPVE

Scale: log2 effect, wild type = 0; the lower, the more harmful to the virus. A change reads original residue, position, new residue.

substitution	log2 growth effect
W3C	-6.68
V8M	-1.77
C16D	-6.53
A17M	0.76
A30S	-1.54
V36C	0.15
G37R	-7.63
L38F	-4.98
L38Q	-6.14
Y53F	-1.63
R56C	-5.03
A57E	-0.57
D59E	-1.10
W62K	-6.76
E63C	-2.41
N71I	-2.88
N71T	0.72
E81*	-4.37
G83H	-4.95
D84*	-7.07
D84P	-7.27
S86M	-3.04
E90V	-1.80
P93T	-3.57
M105T	-7.32
P112T	-3.83
F117S	-7.18
G120P	-7.19
G120R	-7.37
G120S	-0.77
W122R	-7.58
Y123F	-0.17
T128L	-7.54
G129D	-5.39
S132*	-6.34
A134I	-4.74
A134T	-6.14
L135H	-6.75
L135I	-4.60
E143L	-0.91
K145V	-0.51
E148F	-3.77
D151L	-6.84
G152F	-5.83
R160E	-4.95
G163A	-3.48
S164Y	-3.25
V169G	-6.75
V169W	-5.40
H178R	-6.10
T179E	-5.25
W181K	-4.90
H182V	-4.82
A187D	-3.24
W200P	-7.63
W200T	-7.43
W200V	-7.44
G201S	-7.12
Q205I	-3.53
V208I	-1.28
C211N	0.55
P213K	-3.29
W214Q	-7.59
A219E	0.91
V226Q	-4.96
A230L	-5.28
P232T	-0.44
A237Q	0.59
N239G	-3.94
I240P	-6.90
G252D	-5.55
G252P	-6.28
G252W	-6.61
A258C	-5.31
L259D	-4.63
L259T	-6.00
T265R	-5.46
S268H	-5.19
P269G	-5.67
V277G	-5.16
I278T	-5.90
I287V	-0.20
V293*	-6.48
T297C	-4.70
E304D	-2.06
E308F	-0.63

The last 7 entries again:

* V277G: -5.16
* I278T: -5.90
* I287V: -0.20
* V293*: -6.48
* T297C: -4.70
* E304D: -2.06
* E308F: -0.63

Values above 0 are not proof of better growth: six high scorers were tested one by one, five grew less well than wild type and one about as well. Position 1 still belongs to NS2A. In the paper, -1 or higher counts as tolerated. An asterisk is a stop codon; stop codons read about -7, near the floor of the assay. Positions 1-103, 104-206 and 207-308 were made and measured as separate libraries.

Data from the supplement of Ni et al. 2025, doi:10.1038/s41467-025-63602-z.